Compound potency records, mixed from different reports. Data source: NIAID ChemDB in PubChem.

Shared fields: growth or infection tests; agent: HIV-1; measure: EC50

ECn is the concentration giving n% inhibition of infection, replication or growth.

SMILES	strain or isolate	setting	changes	read by	cell line	value
CCCCOC(=O)[C@H](C)NP(=O)(CO[C@@H]1C=C(F)[C@H](n2cnc3c(N)ncnc32)O1)N[C@@H](C)C(=O)OCCCC	IIIB			ATP	MT-2	0.041 µM
Cc1ccnc2c1NC(=O)c1cccnc1N2C1CC1	HXB2		RT-Y181C	β-galactosidase	MAGI (CCR5) + MAGI	3.8 µM
CC(=O)NCCCC(C)(C)CN(C[C@@H](O)[C@H](Cc1ccccc1)NC(=O)O[C@H]1CO[C@H]2OCC[C@H]21)S(=O)(=O)c1ccc2c(c1)OCO2	Multi-PI-resistant EP13		PR-M46I L63P A71V V82F/L I84V	cytopathic effect / propidium iodide	MT-4	0.03 µM
CO[P@](=O)(c1cc(C)cc(/C=C/C#N)c1)c1c(C(N)=O)[nH]c2ccc(Cl)cc12	Clinical isolate		K103N/Y181C		MT-2	0.0057 µM
COc1ccc(C(=O)CSc2nc(CC34CC5CC(CC(C5)C3)C4)c(C)c(=O)[nH]2)cc1	RES056			MTT / absorbance	MT-4	>285 µM
CC(=O)Oc1ccc(COP(=O)(OCc2ccc(OC(C)=O)cc2)OC[C@@H]2C=C[C@H](n3cc(C)c(=O)[nH]c3=O)O2)cc1	IIIB			cytopathic effect / syncytia	CEM + CEM/O	0.17 µM
Cc1cn(C2C[C@H](N)[C@H](CO)O2)c(=O)[nH]c1=O	IIIB			MTT / syncytia	MT-4	>1000 µM
Cc1cn([C@H]2C=C[C@@H](CO)O2)c(=O)[nH]c1=O	LAI			p24 / ELISA	Primary T lymphocytes	1 µM
COc1cc2c3cc1Oc1c(O)c(OC)cc4c1C(Cc1ccc(cc1)Oc1cc(ccc1O)CC3N(C)CC2)N(C)CC4	IIIB			cytopathic effect / visual reading	MT-4	<31.3 µg/mL
Cc1c(CC23CC4CC(CC(C4)C2)C3)nc(SCC(=O)Nc2ccccc2)[nH]c1=O	RES056			MTT / absorbance	MT-4	>295 µM
CC(C)OC(=O)[C@H](C)N[P@](=O)(CO[C@H](C)Cn1cnc2c(N)ncnc21)Oc1ccccc1	IIIB			XTT / absorbance	MT-2	0.005 µM
CN[C@H]1CO[C@@H]2OCC[C@H](OC(=O)N[C@@H](Cc3ccccc3)[C@H](O)CN(CC(C)C)S(=O)(=O)c3ccc4nc(NC5CC5)sc4c3)[C@@H]21	NL4-3		L10I I15V K20R L24I V32I M36I M46I I54V I62V L63P K70Q V82A L88M	p24 / luminescence	MT-4	0.0021 µM
CC(=O)c1ccc(C)cc1NC(C(N)=O)c1c(Cl)cccc1Cl	IIIB			MTT	MT-4	0.046 µM
CC(C)(C)NC(=O)[C@@H]1CN(Cc2cccnc2)CCN1C[C@@H](O)C[C@@H](Cc1ccccc1)C(=O)N[C@H]1c2ccccc2C[C@H]1O	NL4-3 WT			luciferase / recombinant virus assay	HEK 293 + 293 Cells	0.008 µM
CC(C)c1nc(CN(C)C(=O)N[C@H](C(=O)N[C@@H](Cc2ccccc2)C[C@H](O)[C@H](Cc2ccccc2)NC(=O)OCc2cncs2)C(C)C)cs1	NL4-3		PR-I84V	p24	MT-4	<0.8 µM
COC(=O)NCCCC(C)(C)CN(C[C@@H](O)[C@H](Cc1ccccc1)NC(=O)O[C@H]1CO[C@H]2OCC[C@H]21)S(=O)(=O)c1ccc2c(c1)OCO2	Multi-PI-resistant EP13		PR-M46I L63P A71V V82F/L I84V	cytopathic effect / propidium iodide	MT-4	0.038 µM
CCCCCCCCCCCCCCCCCCCCCCC(=O)O[C@@H]1[C@@H](C)[C@@]2(O)[C@@H](C=C(COC(C)=O)C[C@]3(O)C(=O)C(C)=C[C@@H]23)[C@@H]2C(C)(C)[C@]12O	IIIB			p24 / ELISA	C8166	0.873 µM
COC(=O)CC(OP(=O)(OC[C@@H]1C=C[C@H](n2cc(C)c(=O)[nH]c2=O)O1)OC(CC(=O)OC)c1ccccc1)c1ccccc1	IIIB			cytopathic effect / syncytia	CEM + CEM/O	5 µM
Cc1ccnc2c1NC(=O)c1cccnc1N2C1CC1	IIIB			cytopathic effect / XTT	U-937	0.3 µM
Cc1cn([C@H]2C=C[C@@H](CO)O2)c(=O)[nH]c1=O	HXB2		RT-K65R	β-galactosidase	MAGI (CCR5) + MAGI	7.8 µM
COC(=O)CC(OP(=O)(OC[C@@H]1C=C[C@H](n2cc(C)c(=O)[nH]c2=O)O1)OC(CC(=O)OC)c1ccc(OC(C)=O)cc1)c1ccc(OC(C)=O)cc1	IIIB			cytopathic effect / syncytia	CEM + CEM/O	0.25 µM
Cc1cn([C@H]2C[C@H](N=[N+]=[N-])[C@@H](CO)O2)c(=O)[nH]c1=O	LJM (subtype B)	4 d		p24 / ELISA / antigen	PBMCs	0.33 µM
Cc1ccc(NC(=O)CSc2nc(CC34CC5CC(CC(C5)C3)C4)c(C)c(=O)[nH]2)c([N+](=O)[O-])c1	IIIB			MTT / absorbance	MT-4	5.39 µM
C[C@H](Cn1cnc2c(N)ncnc21)OCP(=O)(O)O	IIIB			XTT / absorbance	MT-2	5 µM
Cc1cn([C@H]2C[C@H](F)[C@H](CO)O2)c(=O)[nH]c1=O	IIIB			MTT / syncytia	MT-4	>1000 µM
Nc1nc(=O)n([C@@H]2CS[C@H](CO)O2)cc1F	LAI			p24 / ELISA	Primary T lymphocytes	0.09 µM
CCN[C@H]1CO[C@@H]2OCC[C@H](OC(=O)N[C@@H](Cc3ccccc3)[C@H](O)CN(CC(C)C)S(=O)(=O)c3ccc4nc(NC5CC5)sc4c3)[C@@H]21	NL4-3		L10I I15V K20R L24I V32I M36I M46I I54V I62V L63P K70Q V82A L88M	p24 / luminescence	MT-4	0.0016 µM
Cc1cc(C)cc(S(=O)(=O)c2c(C(=O)NC(C)C(=O)NC(C)c3ccncc3)[nH]c3ccc(Cl)cc23)c1	NL4-3		K103N/Y181C	cytopathic effect / MTT / absorbance	MT-4	>0.364 µM
CC(C)OC(=O)OCOP(=O)(CO[C@H](C)Cn1cnc2c(N)ncnc21)OCOC(=O)OC(C)C	IIIB			XTT / absorbance	MT-2	0.05 µM
Cc1cn([C@H]2C=C[C@@H](COP(=O)(O[C@H](C)c3ccccc3)O[C@H](C)c3ccccc3)O2)c(=O)[nH]c1=O	IIIB			cytopathic effect / syncytia	CEM + CEM/O	113 µM
CC(C)(CCCNS(C)(=O)=O)CN(C[C@@H](O)[C@H](Cc1ccccc1)NC(=O)O[C@H]1CO[C@H]2OCC[C@H]21)S(=O)(=O)c1ccc2c(c1)OCO2	Multi-PI-resistant EP13		PR-M46I L63P A71V V82F/L I84V	cytopathic effect / propidium iodide	MT-4	0.047 µM
N[C@@H](CCC(=O)O)C(=O)N[C@@H](Cc1ccc(O)cc1)C(=O)O	IIIB			cytopathic effect / neutral red	MT-2	1.8 µg/mL
COC(=O)N[C@@H](Cc1c[nH]c2ccccc12)C(=O)NCCCC[C@@H](CO)N(CC(C)C)S(=O)(=O)c1ccc(N)cc1	NL4-3			cytopathic effect / MTT	MT-4	0.152 µM
COC(=O)NCCC(C)(C)CN(C[C@@H](O)[C@H](Cc1ccccc1)NC(=O)O[C@H]1CO[C@H]2OCC[C@H]21)S(=O)(=O)c1ccc2c(c1)OCO2	Multi-PI-resistant EP13		PR-M46I L63P A71V V82F/L I84V	cytopathic effect / propidium iodide	MT-4	0.022 µM
Cc1cc(C)cc(S(=O)(=O)c2c(C(=O)NC(C)C(=O)NC(C)c3ccccc3F)[nH]c3ccc(Cl)cc23)c1	NL4-3		Y188L	cytopathic effect / MTT / absorbance	MT-4	>152 µM
Cc1c(CC23CC4CC(CC(C4)C2)C3)nc(SCC(=O)Nc2ccc(C(N)=O)cc2)[nH]c1=O	RES056			MTT / absorbance	MT-4	>29.15 µM
CCc1c(C(=O)c2cc(C)cc(C)c2)n(CC2CC=CC2)c(=O)[nH]c1=O	NL4-3		RT-V179D	cytopathic effect / XTT	CEM + CEM-SS	0.001 µM
Cc1cn([C@H]2C[C@H](N=[N+]=[N-])[C@@H](CO)O2)c(=O)[nH]c1=O	HIVRTMC			plaque count	HT4 + HT4-6C	0.24 µM
Nc1ncnc2c1ncn2[C@@H]1O[C@H](OCP(=O)(O)O)C=C1F	IIIB			ATP	MT-2	10.6 µM
Cc1cn([C@@H]2O[C@H](CO[Si](C)(C)C(C)(C)C)[C@@]3(OS(=O)(=O)C=C3N)[C@H]2O[Si](C)(C)C(C)(C)C)c(=O)[nH]c1=O	UC040-R (RT-Y181C)		RT-Y181C	cytopathic effect / XTT	CEM + CEM-SS	>10 µM
COc1ccc(CSc2nc(CC34CC5CC(CC(C5)C3)C4)c(C)c(=O)[nH]2)cc1	IIIB			MTT / absorbance	MT-4	>2.12 µM
Cc1cn([C@@H]2O[C@@H](CO)[C@@H](N)[C@H]2O)c(=O)[nH]c1=O	IIIB			MTT / syncytia	MT-4	>1000 µM
CC(C)CN(C[C@@H](O)[C@H](Cc1ccccc1)NC(=O)O[C@H]1CCO[C@H]2OCC[C@H]21)S(=O)(=O)c1ccc2nc(NC3CC3)sc2c1	NL4-3		L10I I15V K20R L24I V32I M36I M46I I54V I62V L63P K70Q V82A L88M	p24 / luminescence	MT-4	0.034 µM
Nc1ncnc2c1ncn2[C@H]1C=C[C@@H](OCP(=O)(O)O)C1	IIIB			ATP	MT-2	52 µM
Cc1occc1C(=S)Nc1ccc(Cl)c(/C=N/OC(C)(C)C)c1	NL4-3 (RT V108I)		RT-V108I	cytopathic effect / XTT	CEM + CEM-SS	0.2 µM
CCN[C@H]1CO[C@@H]2OCC[C@H](OC(=O)N[C@@H](Cc3cccc(OC)c3)[C@H](O)CN(CC(C)C)S(=O)(=O)c3ccc4nc(NC(C)C)sc4c3)[C@@H]21	NL4-3		L10F M46I I54V V82A	p24 / luminescence	MT-4	0.035 µM
Nc1ccn([C@@H]2CS[C@H](CO)O2)c(=O)n1			L74V	p24 / ELISA	Primary T lymphocytes	0.6 µM
CC(C)CN(C[C@@H](O)[C@H](Cc1ccccc1)NC(=O)O[C@H]1CCOC1)S(=O)(=O)c1ccc(N)cc1	NL4-3		L10I I54V K20R L24I V32I L33F M36I M46I I54M L63P K70Q V82I I84V L89M	p24 / luminescence	MT-4	>1 µM
C[C@H](Cn1cnc2c(N)ncnc21)OCP(=O)(O)O				p24 / ELISA / antigen	PBMCs	1.5 µM

Repeating the final 7 entries:

SMILES	strain or isolate	setting	changes	read by	cell line	value
CC(C)CN(C[C@@H](O)[C@H](Cc1ccccc1)NC(=O)O[C@H]1CCO[C@H]2OCC[C@H]21)S(=O)(=O)c1ccc2nc(NC3CC3)sc2c1	NL4-3		L10I I15V K20R L24I V32I M36I M46I I54V I62V L63P K70Q V82A L88M	p24 / luminescence	MT-4	0.034 µM
Nc1ncnc2c1ncn2[C@H]1C=C[C@@H](OCP(=O)(O)O)C1	IIIB			ATP	MT-2	52 µM
Cc1occc1C(=S)Nc1ccc(Cl)c(/C=N/OC(C)(C)C)c1	NL4-3 (RT V108I)		RT-V108I	cytopathic effect / XTT	CEM + CEM-SS	0.2 µM
CCN[C@H]1CO[C@@H]2OCC[C@H](OC(=O)N[C@@H](Cc3cccc(OC)c3)[C@H](O)CN(CC(C)C)S(=O)(=O)c3ccc4nc(NC(C)C)sc4c3)[C@@H]21	NL4-3		L10F M46I I54V V82A	p24 / luminescence	MT-4	0.035 µM
Nc1ccn([C@@H]2CS[C@H](CO)O2)c(=O)n1			L74V	p24 / ELISA	Primary T lymphocytes	0.6 µM
CC(C)CN(C[C@@H](O)[C@H](Cc1ccccc1)NC(=O)O[C@H]1CCOC1)S(=O)(=O)c1ccc(N)cc1	NL4-3		L10I I54V K20R L24I V32I L33F M36I M46I I54M L63P K70Q V82I I84V L89M	p24 / luminescence	MT-4	>1 µM
C[C@H](Cn1cnc2c(N)ncnc21)OCP(=O)(O)O				p24 / ELISA / antigen	PBMCs	1.5 µM

Lines come from different laboratories, so protocols vary. An empty or dashed field is not shown.